Results of unrelated studies side by side (data: NIAID ChemDB).

Shared fields: tests in culture; species: Candida albicans; read-out: MBC

Blank or dashed fields: not listed here. Neighbouring rows are from separate reports.

structure | strain or isolate | value
c1ccc(-c2n[nH]c3c2CCCC3)cc1 | 264/624 | 125 µg/mL
COc1ccc(C2=CC(c3cc(OC)c(OC)c(OC)c3)NC(SCC(=O)Nc3ccc(Cl)cc3)N2)cc1OC | DSM 70014 | 50 µg/mL
CCCCCCCCCCCCOC[N+](C)(C)CCCCCCCC | ATCC 10231 | 25.5 µM
COc1ccc(/C=c2\sc3n(c2=O)C(c2cc(OC)c(OC)c(OC)c2)C=C(c2ccc(OC)c(OC)c2)N=3)cc1OC | DSM 70014 | 50 µg/mL
CCCCCCCCOC[N+](C)(C)Cc1cc(N=Nc2ccc(Cl)cc2)ccc1O |  | 534 µM
CCCCCCCCCOC[n+]1cccc(NCn2cnc3ccccc32)c1 | ATCC 10231 | 1200 µM
Cc1ccc(N=Nc2ccc(O)c(C[N+](C)(C)COC3CCCC3)c2)cc1 |  | 619 µM
CCCCCCOC[n+]1cccc(NCn2nnc3ccccc32)c1 | ATCC 10231 | >1332 µM
COc1ccc(C2=NN(c3ccccc3)C(c3cc(OC)c(OC)c(OC)c3)C2)cc1OC | DSM 70014 | 100 µg/mL
CCCCCCCCCCCC[N+](C)(C)COC1CCCCCCCCCCC1 | ATCC 10231 | 26.9 µM
COc1ccc(-c2cc(-c3cc(OC)c(OC)c(OC)c3)nc(NN)n2)cc1OC | DSM 70014 | 50 µg/mL
c1coc(-c2n[nH]c3c2CCCC3)c1 | 264/624 | 250 µg/mL
CCCCCCCCCCCCOC[n+]1cccc(NCn2nnc3ccccc32)c1 | ATCC 10231 | 272 µM
CCCCCCCCCOC[N+](C)(C)Cc1cc(N=Nc2ccc(C)cc2)ccc1O |  | 2166 µM
COc1ccc(C2=CC(c3cc(OC)c(OC)c(OC)c3)N=C(SCC(C)=O)N2)cc1OC | DSM 70014 | 50 µg/mL
CCCCCCCCCCCC[N+](C)(C)COCCCCCCCCCCC | ATCC 10231 | 115 µM
Cc1ccc(N=Nc2ccc(O)c(C[N+](C)(C)COCCC3CCCCC3)c2)cc1 |  | 280 µM
CCCCCCCCOC[N+](C)(C)CCCCCCCC | ATCC 10231 | 298 µM
CCCCCCCCOC[n+]1cccc(NCn2cnc3ccccc32)c1 | ATCC 10231 | 1242 µM

A second listing of 2 rows from above:

{"structure": "CCCCCCCCCCCC[N+](C)(C)COCCCCCCCCCCC", "strain or isolate": "ATCC 10231", "value": "115 µM"}
{"structure": "CCCCCCCCCOC[n+]1cccc(NCn2cnc3ccccc32)c1", "strain or isolate": "ATCC 10231", "value": "1200 µM"}